A mixed list of measured activities; the numbers were collected in NIAID ChemDB.

Common to all: growth or infection tests; agent: HIV-1

Conditions beyond the fields shown may differ between rows. Blank or dashed fields: not listed here. ECn: concentration that inhibits the pathogen or its effect by n%.

SMILES	method	cells	endpoint	mutations	strain or isolate	setting	value
C#C[C@]1(CO)O[C@@H](n2cnc3c(NC(=O)CCCCCCCCCCCCC)nc(F)nc32)C[C@@H]1OC(C)=O	luminescence	U373-CD4-CXCR4	EC50		NL4-3	pseudotyped	0.0114 µM
Cc1cn([C@H]2C=C[C@@H](COC(=O)NCCSC(=O)OC[C@@H]3CC[C@H](n4cnc5c(=O)[nH]cnc54)O3)O2)c(=O)[nH]c1=O	cytopathic effect / MTT	MT-4	EC50	RT-Y181C	NNRTI-resistant (RT Y181C)		13 µM
COc1cc(C[C@@](O)(C(N)=O)[C@H](CO)Cc2ccc(OC)c(OC)c2)ccc1O	syncytia	H9	EC50		IIIB		<1.8 µM
Cc1cn([C@H]2C[C@H](N=[N+]=[N-])[C@@H](CO)O2)c(=O)[nH]c1=O	cytopathic effect / MTT	MT-4	EC50		IIIB		0.033 µg/mL
Cc1cn([C@H]2C[C@H](N=[N+]=[N-])[C@@H](CO)O2)c(=O)[nH]c1=O	p24 / ELISA	TZM-bl	EC50		Du422.1		0.00696 µM
COc1cc([C@H]2OC[C@H]3[C@@H]2CO[C@@H]3c2ccc3c(c2)OCO3)cc(OC)c1OC	RT activity	H9	EC50		IIIB		<10.6 µM
Cc1cn([C@H]2C[C@H](N=[N+]=[N-])[C@@H](CO)O2)c(=O)[nH]c1=O	RT activity	CEM + CEM-SS	EC50		LAI		0.0033 µM
Cc1cc(SC2=C(O)C[C@@](CCc3ccc(N)cc3)(C(C)C)OC2=O)c(C(C)(C)C)cc1CO	cytopathic effect / MTT	CEM	EC50		IIIB		0.2 µM
C[C@@H](NC(=S)Nc1ccc(Br)cn1)c1cccc2ccccc12	p24	PBMC	EC50	RT-K103N Y181C	A17V(RT-K103N Y181C)		0.287 µM
Cc1cc(SC2=C(O)C[C@@](CCc3ccc(O)cc3)(C(C)C)OC2=O)c(C(C)(C)C)cc1CO	cytopathic effect / MTT	CEM	EC50		IIIB		0.46 µM
Cc1c(Cc2c(F)cccc2F)nc(SC2CCCC2)[nH]c1=O	p24	MT-4	EC50		IIIB		<0.04 µM
Cc1cn([C@H]2C[C@H](N=[N+]=[N-])[C@@H](COC(=O)NCCSC(=O)OC[C@@H]3CC[C@H](n4cnc5c(=O)[nH]cnc54)O3)O2)c(=O)[nH]c1=O	cytopathic effect / MTT	MT-4	EC50		WT		1 µM
Cc1cn([C@H]2C=C[C@@H](COC(=O)CNC(=O)CCC(=O)N3CCN(CCNC(=S)Nc4ccc(Br)cn4)CC3)O2)c(=O)[nH]c1=O	RT activity	CEM + CEM-SS	EC50		LAI		0.17 µM
CO[C@H]1/C=C/O[C@@]2(C)Oc3c(C)c(O)c4c(c3C2=O)C(=O)C(SCCOC(=O)CCC(=O)OC[C@H]2O[C@@H](n3cc(C)c(=O)[nH]c3=O)C[C@@H]2N=[N+]=[N-])=C(NC(=O)/C(C)=C\C=C\[C@H](C)[C@@H]2OC(C)(C)O[C@@H]([C@@H](C)[C@H](OC(C)=O)[C@@H]1C)[C@@H]2C)C4=O	p24	C8166	EC50		IIIB		0.04 µM
C#C[C@]1(CO)O[C@@H](n2cnc3c(N)nc(F)nc32)C[C@@H]1OC(=O)C1CCCCC1	luminescence	U373-CD4-CXCR4	EC50		NL4-3	pseudotyped	0.0039 µM
COc1ccc(S(=O)(=O)N(CC(C)C)C[C@@H](O)[C@H](Cc2ccccc2)NC(=O)O[C@H]2CO[C@H]3OCC(F)(F)[C@H]32)cc1		MT-4	EC50	M46I I50V N38K M36I GRL05010-resistant	NL4-3		0.029 µM
O=C(CCC(=O)N1CCN(CCNC(=S)Nc2ccc(Br)cn2)CC1)NCC(=O)OC[C@@H]1CC[C@H](n2ccc(=O)[nH]c2=O)O1	RT activity	CEM + CEM-SS	EC50		LAI		>100 µM
CC(C)CN(C[C@@H](O)[C@H](Cc1ccccc1)NC(=O)O[C@H]1CO[C@H]2OCC(F)(F)[C@H]21)S(=O)(=O)c1ccc(N)cc1		MT-4	EC50	L10I G48V I54V A71V I84V L90M SQV resistant	NL4-3		0.046 µM
C#C[C@]1(CO)O[C@@H](n2cnc3c(N)nc(F)nc32)C[C@@H]1OC(=O)C1CCC(CCCCC)CC1	luminescence	U373-CD4-CXCR4	EC50		NL4-3	pseudotyped	0.0018 µM
Cc1cn([C@H]2C[C@H](N=[N+]=[N-])[C@@H](CO)O2)c(=O)[nH]c1=O	p24	PBMC	EC50		RF		<0.125 µM
O=c1cc(Cc2c(F)cccc2F)nc(SC2CCCC2)[nH]1	p24	MT-4	EC50		IIIB		<0.15 µM
Cc1cc(SC2=C(O)CC(CCc3ccc(O)cc3)(C(C)C)OC2=O)c(C(C)(C)C)cc1CO	cytopathic effect / MTT	CEM	EC50		IIIB		0.57 µM
Cc1cn([C@H]2C[C@H](N=[N+]=[N-])[C@@H](CO)O2)c(=O)[nH]c1=O	cytopathic effect / XTT	Macrophage + Monocytes/macrophages	EC50		ADA	clinical isolate	0.01 µM
C[C@@H](NC(=S)Nc1ccc(Cl)cn1)c1cccc2ccccc12	p24	PBMC	EC50		IIIB		0.001 µM
C#C[C@]1(CO)O[C@@H](n2cnc3c(NC(=O)OCC)nc(F)nc32)C[C@@H]1OC(=O)CCCCCCCCC	luminescence	U373-CD4-CXCR4	EC50		NL4-3	pseudotyped	0.1651 µM
CC(=O)Oc1ccc(/C=C/C(=O)O[C@@H](C(=O)O)[C@@H](OC(=O)/C=C/c2ccc(OC(C)=O)c(OC(C)=O)c2)C(=O)O)cc1OC(C)=O	cytopathic effect / MTT	MT-4	EC50		NL4-3		8 µM
Cc1ccnc2c1NC(=O)c1cccnc1N2C1CC1	p24	PBMC	EC50	RT-L74V V106A T215Y	RT multidrug-resistant (L74V V106A T215Y)		0.155 µM
CCC(c1cc(=O)[nH]c(SC2CCCC2)n1)c1c(F)cccc1F	p24	MT-4	EC90		IIIB		0.08 µM
O=C1O[C@H]2[C@@H]3OC(=O)c4cc(O)c(O)c(O)c4-c4c(cc(O)c(O)c4O)C(=O)OC[C@H]2O[C@@H](OC(=O)c2cc(O)c(O)c(O)c2)[C@@H]3OC(=O)c2cc(O)c(O)c3c2[C@@H]2C1=CC(=O)[C@](O)(O3)C2(O)O		MAGI	EC50	RT-K103N	NNRTI-resistant (RT K103N) ARP1010		0.83 µg/mL
C#C[C@]1(CO)O[C@@H](n2cnc3c(N)nc(F)nc32)C[C@@H]1OC(=O)C(CCCC)CCCCCC	luminescence	U373-CD4-CXCR4	EC50		NL4-3	pseudotyped	0.1454 µM
Cc1cn([C@H]2C[C@H](N=[N+]=[N-])[C@@H](CO)O2)c(=O)[nH]c1=O	p24	MT-4	EC90	RT-M184V	XM-M184V		0.009 µM
Cc1ccc(NC(=S)N[C@H](C)c2cccc3ccccc23)nc1	p24	PBMC	EC50	RT-L74V V106A T215Y	RT multidrug-resistant (L74V V106A T215Y)		0.003 µM
C#C[C@]1(CO)O[C@@H](n2cnc3c(N)nc(F)nc32)C[C@@H]1OC(=O)CCCCCCC/C=C\C/C=C\C/C=C\CC	luminescence	U373-CD4-CXCR4	EC50		NL4-3	pseudotyped	0.0071 µM
Cc1cc(SC2=C(O)CC(CCc3ccc(O)cc3)(C3CCCC3)OC2=O)c(C(C)(C)C)cc1OCCO	cytopathic effect / MTT	CEM	EC50		IIIB		1.2 µM
OC[C@@H]1[C@@H](O)[C@H](O)[C@@H](O)CN1C/C=C/c1ccc(F)cc1	syncytia	MOLT-4	EC50		IIIB		29 µM
c1cc(CN2CCCNCCNCCCNCC2)ccc1CN1CCCNCCNCCCNCC1	MTT	MT-4	EC50		NL4-3		0.001 µM
COc1ccc(C[C@H]2COC(=O)[C@@H]2Cc2ccc(O[C@@H]3O[C@H](CO)[C@@H](O)[C@H](O)[C@H]3O)c(OC)c2)cc1OC	syncytia	H9	EC50		IIIB		<5 µM
OC[C@@H]1[C@@H](O)[C@H](O)[C@@H](O)CN1CC=C(c1ccc(F)cc1)c1ccc(F)cc1	syncytia	MOLT-4	EC50		IIIB		>210 µM
O=C1CCN(CCOc2ccc(Cl)cc2C(=O)c2cc(Cl)cc(Cl)c2)C(=O)N1	RT activity		EC50	V106A		pseudotyped	>10 µM
CO[C@H]1/C=C/O[C@@]2(C)Oc3c(C)c(O)c4c(c3C2=O)C(=O)C(SCCOC(=O)CCCC(=O)OC[C@@H]2O[C@H](n3cc(C)c(=O)[nH]c3=O)C[C@H]2N=[N+]=[N-])=C(NC(=O)/C(C)=C\C=C\[C@H](C)[C@@H]2OC(C)(C)O[C@@H]([C@@H](C)[C@H](OC(C)=O)[C@@H]1C)[C@@H]2C)C4=O	p24	C8166	EC90		IIIB		14 µM
OC[C@@H]1[C@@H](O)[C@H](O)[C@@H](O)CN1CCCCC(F)(F)F	syncytia	MOLT-4	EC50		IIIB		26 µM
O=c1[nH]cnc2c1ncn2[C@H]1CC[C@@H](CO)O1	p24	PBMC	EC90	RT-T69SSS L210W T215Y	XM-T69SSS		38 µM
Cc1cc(C)cc(C(=O)c2cc(Cl)ccc2OCCN2CCC(=O)NC2=O)c1	RT activity		EC50	V106A		pseudotyped	>10 µM
C#C[C@]1(CO)O[C@@H](n2cnc3c(N)nc(F)nc32)C[C@@H]1OC(=O)C(CCC)CCC	luminescence	U373-CD4-CXCR4	EC50		NL4-3	pseudotyped	0.0355 µM
COc1cc([C@@H]2c3cc4c(cc3[C@H](O)[C@H]3COC(=O)[C@H]23)OCO4)cc(OC)c1OC	p24	H9	EC50		IIIB		<0.007 µM
Cc1cc(SC2=C(O)CC(CCc3ccc(N)cc3)(C(C)C)OC2=O)c(C(C)(C)C)cc1CO	cytopathic effect / MTT	CEM	EC50		IIIB		0.5 µM
Cc1cn([C@H]2C=C[C@@H](COC(=O)NCCSC(=O)OC[C@@H]3C=C[C@H](n4cc(C)c(=O)[nH]c4=O)O3)O2)c(=O)[nH]c1=O	cytopathic effect / MTT	MT-4	EC50	RT-K103N Y181C	NNRTI-resistant (RT K103N Y181C)		>20 µM
OC[C@@H]1[C@@H](O)[C@H](O)[C@@H](O)CN1C/C=C/c1ccccc1F	syncytia	MOLT-4	EC50		IIIB		9.1 µM

For reference, 6 entries again:

SMILES	method	cells	endpoint	mutations	strain or isolate	setting	value
Cc1cn([C@H]2C[C@H](N=[N+]=[N-])[C@@H](CO)O2)c(=O)[nH]c1=O	cytopathic effect / XTT	Macrophage + Monocytes/macrophages	EC50		ADA	clinical isolate	0.01 µM
CO[C@H]1/C=C/O[C@@]2(C)Oc3c(C)c(O)c4c(c3C2=O)C(=O)C(SCCOC(=O)CCCC(=O)OC[C@@H]2O[C@H](n3cc(C)c(=O)[nH]c3=O)C[C@H]2N=[N+]=[N-])=C(NC(=O)/C(C)=C\C=C\[C@H](C)[C@@H]2OC(C)(C)O[C@@H]([C@@H](C)[C@H](OC(C)=O)[C@@H]1C)[C@@H]2C)C4=O	p24	C8166	EC90		IIIB		14 µM
Cc1cc(SC2=C(O)CC(CCc3ccc(N)cc3)(C(C)C)OC2=O)c(C(C)(C)C)cc1CO	cytopathic effect / MTT	CEM	EC50		IIIB		0.5 µM
C#C[C@]1(CO)O[C@@H](n2cnc3c(N)nc(F)nc32)C[C@@H]1OC(=O)CCCCCCC/C=C\C/C=C\C/C=C\CC	luminescence	U373-CD4-CXCR4	EC50		NL4-3	pseudotyped	0.0071 µM
O=c1cc(Cc2c(F)cccc2F)nc(SC2CCCC2)[nH]1	p24	MT-4	EC50		IIIB		<0.15 µM
C[C@@H](NC(=S)Nc1ccc(Cl)cn1)c1cccc2ccccc12	p24	PBMC	EC50		IIIB		0.001 µM